The record followed here is ChEMBL document CHEMBL5029184, “Colloidal Aggregators in Biochemical SARS-CoV-2 Repurposing Screens” (J Med Chem, 2021).

The nature of the assay: Inhibition of SARS CoV2 C-terminal His6-tagged 3CL protease (3264 to 3569 residues) expressed in Escherichia coli BL21 DE3 using rr-K(MCA)-ATLQAIAS-K(DNP)-COOH preincubated for 1 hr followed by substrate addition and measured after 1 hr in presence of 0.05% Tween-20. Details: species or system Severe acute respiratory syndrome coronavirus 2. A digest of the protocol:
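Purified recombinant 3CL-Pro at 50 nM final with quenched fluorogenic peptide at 10 μM final (KM), in 20 mM Tris, 150 mM NaCl, 1 mM EDTA, 1 mM DTT, 0.05% Tween-20, pH 7.4. Drug and enzyme were preincubated 1 h at 37 °C, then substrate was added and fluorescence followed 1 h.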

The structures appear in SMILES notation.

In the case of `O=C1c2c(O)cccc2Cc2cccc(O)c21` [ANTHRALIN], the IC50 is above 200 µM.

Broadly, the IC50 is the concentration needed to halve the response being measured.
